Six substances from patent publication US11723968, “Stabilized recombinant hantaviral spike proteins comprising mutations in Gc” (dated 2023) can be followed below.

Series [1] relates to Andes virus glycoprotein Gn, wild type, Andes virus (Andes orthohantavirus CHI-7913 isolate).
Series [2] has as its system Andes virus Gc mutant T734C, Andes virus.
Series [3] concerns Andes virus Gc mutant V776C, Andes virus.

Substance Andes virus Gc mutant D679S registered a melting temperature (Tm) of the temperature-induced Gn/Gc dissociation in series [1] of 34.5 ° c.

For the substance Andes virus Gc mutant E677Q, the melting temperature (Tm) of the temperature-induced Gn/Gc dissociation in series [1] was found to be 35 ° c.

Andes virus Gc mutant G838C had a melting temperature (Tm) of the temperature-induced Gn/Gc dissociation in series [1] of 48 ° c.

In turn, Andes virus Gc mutant R951Q showed a melting temperature (Tm) of the temperature-induced Gn/Gc dissociation in series [1] of 32.3 ° c.

Regarding Andes virus Gn mutant H294C, the melting temperature (Tm) of the temperature-induced Gn/Gc dissociation in series [2] was 79.1 ° c.

As to Andes virus Gn mutant N94C, the melting temperature (Tm) of the temperature-induced Gn/Gc dissociation in series [3] is 60.4 ° c.
